The test system of this assay is P. aeruginosa PA14 feoB::MAR2xT7 mutant. Kind of assay: Flow cell biofilm development, feoB::MAR2xT7 mutant, 1% TSB with conalbumin. Particulars: 40 μg/ml conalbumin.

B1: conalbumin: Fe(III)-binding protein of the transferrin family, an Fe(III) chelator; substantially iron-free, from Sigma-Aldrich (protein, UniProt P02789 20-705, looked up)
Ovotransferrin: APPKSVIRWCTISSPEEKKCNNLRDLTQQERISLTCVQKATYLDCIKAIANNEADAISLDGGQAFEAGLAPYKLKPIAAEVYEHTEGSTTSYYAVAVVKKGTEFTVNDLQGKTSCHTGLGRSAGWNIPIGTLLHRGAIEWEGIESGSVEQAVAKFFSASCVPGATIEQKLCRQCKGDPKTKCARNAPYSGYSGAFHCLKDGKGDVAFVKHTTVNENAPDQKDEYELLCLDGSRQPVDNYKTCNWARVAAHAVVARDDNKVEDIWSFLSKAQSDFGVDTKSDFHLFGPPGKKDPVLKDLLFKDSAIMLKRVPSLMDSQLYLGFEYYSAIQSMRKDQLTPSPRENRIQWCAVGKDEKSKCDRWSVVSNGDVECTVVDETKDCIIKIMKGEADAVALDGGLVYTAGVCGLVPVMAERYDDESQCSKTDERPASYFAVAVARKDSNVNWNNLKGKKSCHTAVGRTAGWVIPMGLIHNRTGTCNFDEYFSEGCAPGSPPNSRLCQLCQGSGGIPPEKCVASSHEKYFGYTGALRCLVEKGDVAFIQHSTVEENTGGKNKADWAKNLQMDDFELLCTDGRRANVMDYRECNLAEVPTHAVVVRPEKANKIRDLLERQEKRFGVNGSEKSKFMMFESQNKDLLFKDLTKCLFKVREGTTYKEFLGDKFYTVISSLKTCNPSDILQMCSFLEGK
modifications: iron-free
notes: substantially iron-free, from Sigma-Aldrich
As for B1, the “Biofilm formation with conalbumin (iron-free form) added” value is given as “neither strain formed biofilms”.

Values taken from patent US11820973B2, “Methods and system for interfering with viability of bacteria and related compounds and compositions” (CALIFORNIA INSTITUTE OF TECHNOLOGY, priority 2011, dated 2023).
